# PSTVd stem 3 mutant pool in Nicotiana benthamiana

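A pool of all variants was put on leaves of three Nicotiana benthamiana plants. Samples came from the inoculated region at 5 days, the leaf margin at 10 and upper systemic leaves at 12.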

The pool varies stem 3 of the PSTVd intermediate strain in the pattern GUGGUUCCGNANNCNN; wild type is GUGGUUCCGGAACCGC (upper and lower strand joined, each 5' to 3', the first 8 letters being the upper strand).

Values are reads per thousand in the sample; higher means more abundant, 0 means not found.
Each value is the mean of three plants.
"Pool" is the share in the plasmid pool used as inoculum, on the same scale.
The inoculated region was read from the minus strand, the other sites from the plus strand.
Samples held 27,691 to 54,225 reads, so the smallest values rest on one or two reads.

* GUGGUUCCGGAGUCAA (pool 0.646): inoculated region 0.729; leaf margin 0.380; systemic leaves 0
* GUGGUUCCGCAUUCUA (pool 0.846): inoculated region 0.224; leaf margin 0.0106; systemic leaves 0
* GUGGUUCCGGAGGCCC (pool 0.739): inoculated region 0.331; leaf margin 0.0241; systemic leaves 0
* GUGGUUCCGGACGCGC (pool 0.908): inoculated region 0.315; leaf margin 0; systemic leaves 0
* GUGGUUCCGGAACCCC (pool 0.908): inoculated region 0.434; leaf margin 0.0438; systemic leaves 0.0675
* GUGGUUCCGUAUACUG (pool 0.954): inoculated region 0.328; leaf margin 0.0321; systemic leaves 0.00615
* GUGGUUCCGCACGCAU (pool 0.754): inoculated region 0.783; leaf margin 0.131; systemic leaves 0
* GUGGUUCCGCAGUCCA (pool 0.723): inoculated region 0.651; leaf margin 0.0817; systemic leaves 0
* GUGAUUCCGAAACCUA (pool 0.0154): inoculated region 0; leaf margin 0; systemic leaves 0
* GUGGUUCCGUAUUCAU (pool 1.72): inoculated region 1.21; leaf margin 1.15; systemic leaves 1.02
* GUGGUUCCGUAAUCCG (pool 0.769): inoculated region 0.296; leaf margin 0.104; systemic leaves 0
* GUGGUUCCGAAAACUU (pool 1.79): inoculated region 1.31; leaf margin 0.0106; systemic leaves 0.0559
* GUGGUUCCGAACGCAC (pool 0.862): inoculated region 0.779; leaf margin 0.0212; systemic leaves 0
* GUGGUUCCGGAGCCGA (pool 0.769): inoculated region 0.334; leaf margin 0; systemic leaves 0.00621
* GUGGUUCCGUACACUC (pool 0.846): inoculated region 0.353; leaf margin 0.0307; systemic leaves 0
* GUGGUUCCGCAGUCCG (pool 0.662): inoculated region 1.28; leaf margin 0.339; systemic leaves 0
* GUGGUUCCGAAUCCCG (pool 1.26): inoculated region 0.344; leaf margin 0.0226; systemic leaves 0
* GUGGUUCCGCAACCUA (pool 0.939): inoculated region 0.305; leaf margin 0.0241; systemic leaves 0
* GUGGUUCCGUAUUCCA (pool 1.00): inoculated region 0.899; leaf margin 0.259; systemic leaves 0
* GUGGUUCCGAAAGCUU (pool 0.646): inoculated region 0.798; leaf margin 0.143; systemic leaves 0
* GUGGUUCCGGAAACAU (pool 0.816): inoculated region 0.734; leaf margin 0.0106; systemic leaves 0
* GUGGUUCCGUACACCC (pool 0.816): inoculated region 0.324; leaf margin 0.0332; systemic leaves 0
* GUGGUUCCGUAACCUA (pool 0.954): inoculated region 0.298; leaf margin 0.00944; systemic leaves 0
* GUGGUACCGGCACCGC (pool 0.0154): inoculated region 0; leaf margin 0; systemic leaves 0

2 of these entries, quoted again:

{"sequence": "GUGGUUCCGUACACUC", "pool": "0.846", "inoculated region": 0.353, "leaf margin": 0.0307, "systemic leaves": 0}
{"sequence": "GUGGUUCCGGAGGCCC", "pool": "0.739", "inoculated region": 0.331, "leaf margin": 0.0241, "systemic leaves": 0}

Sequences that differ at fixed positions probably stem from PCR or sequencing errors, and defective variants can be carried along by functional ones.
For reference, wild type rose from 17.3 per thousand in the pool to 330, 345, 235 (inoculated region), 794, 766, 816 (leaf margin) and 830, 792, 869 (systemic leaves).

Data from the supplement of Wu et al. 2024, doi:10.1371/journal.ppat.1012142.